Measured values as given in PMC8971458, “Assembly mechanism of the pleomorphic immature poxvirus scaffold” (2022).

System: D13 N-terminal truncation mutant D13(18-548), Vaccinia virus, Western Reserve strain, P68440 18-548
Experiment: negative-stain transmission electron microscopy

For “D13 N-terminal truncation mutant D13(18-548)”, the stoichiometry N was 3.
